Values quoted from earlier work, collected in patent US20050026902A1, “Methods and compositions for the treatment or prevention of human immunodeficiency virus and related conditions using cyclooxygenase-2 selective inhibitors and antiviral agents” (priority 2003, published 2005).

Conditions: human, in vivo, po

For “Loprnavir & Ritonavir [Lopinavir + Ritonavir]”, the “Food Effect” value is given as “Take with large meal”.
